According to publication PMC12846677 (Viruses, 2025):

Tests used:
[1] = tested on: HIV-1RF/V82F/184V; test: microbe, parasite or virus in culture; details: Human immunodeficiency virus 1, C8166
[2] = tested on: pNL4-3G140S/Q148H; test: microbe, parasite or virus in culture; details: Human immunodeficiency virus 1, C8166
[3] = tested on: NL4-3IN-R263K; assay type: cell-based; details: p24
[4] = tested on: HIV-1RF/V82F/184V; details: C8166, p24
[5] = tested on: pNL4-3G140S/Q148H

| Structure (SMILES) | EC50 [1] | EC50 [2] | FC (Fold Change) EC50 (NL4-3IN-R263K)/EC50 (NL4-3) [3] | SI (CC50/EC50) [4] | Fold decrease in susceptibility of pNL4-3G140S/Q148H compared to HIV-1IIIB [5] | SI (CC50/EC50) ([5]; pNL4-3G140S/Q148H, C8166, p24) |
| --- | --- | --- | --- | --- | --- | --- |
| C[C@@H]1CCO[C@H]2Cn3cc(C(=O)NCc4ccc(F)cc4F)c(=O)c(O)c3C(=O)N12 [DTG, Dolutegravir] | 1.69 ± 1.22 nM | 13.5 ± 8.41 nM |  |  |  |  |
| O=C1Nc2ccc(Cl)cc2[C@@](C#CC2CC2)(C(F)(F)F)O1 [EFV, Efavirenz] |  |  | 1.07 |  |  |  |
| Nc1ccn([C@@H]2CS[C@H](CO)O2)c(=O)n1 [3TC, Lamivudine] |  |  | 0.91 |  |  |  |
| C[C@H]1N2C(=O)c3c(O)c(=O)c(C(=O)NCc4ccc(F)cc4F)cn3C[C@@H]2OCC12CC2 [ACC017] | 1.45 ± 0.48 nM | 8.19 ± 4.88 nM |  | 14,048.28 | 13.88 fold | 2487.18 |
